{"source": "paper PMC11740726", "about": "(PNAS Nexus, 2025)", "tested_on": "SARS-CoV-2^WK-521", "experiment": "In vitro selection of resistant variants by propagating SARS-CoV-2^WK-521 in VeroE6^TMPRSS2 cells with increasing drug concentrations", "settings": "increasing concentrations (TKB272 up to 20 µM)"}
{"smiles": "CC(C)(C)[C@H](NC(=O)C(F)(F)F)C(=O)N1C[C@H]2[C@@H]([C@H]1C(=O)N[C@H](C#N)C[C@@H]1CCNC1=O)C2(C)C", "note": "[Nirmatrelvir, reference compound]", "values": [{"measurement": "passage at which amino acid substitution in the M^pro-encoding gene was first seen under drug selection", "result": 9, "unit": "passage"}]}
